# Assay results from patent US6570004B1 (priority 1996, dated 2003).
# System: H. pylori strain 60190 and mutants
# Assay: Growth of wild type and mutant H. pylori strains on brucella agar in the presence or absence of DAP
# Conditions: 1 mM lysine, no DAP
smiles,measurement,value
NCCCC[C@H](N)C(=O)O,Growth of the dapE− mutant on media supplemented with lysine only,unable to grow
